PubChem BioAssay AID624099 | ICCB-Longwood, 2012

Test: 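Host factors E2 relies on to silence an HPV18 LCR reporter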 (primary screen)
Cells: human C33A cervical carcinoma cells (HPV-negative) stably expressing BPV1 E2 and an HPV18 LCR luciferase reporter
Reagents: siRNA pool against human genes, 40 nM
Duration: 72 h
Measured: 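HPV18 LCR reporter light per well, converted to plate-wise z-scores that exclude control wells, and averaged over triplicate plates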
Scale: mean z-score and z-score: higher = stronger reporter signal, weaker E2 silencing
Active means: 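Hit if mean z-score reaches 2 and two or more of three replicate z-scores also reach 2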
The whole screen tested about 21,000 reagents; this is a part drawn at random. Over the whole deposit, 497 (2.4%) are marked active. 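Higher z means weaker E2 silencing; only reporter increases were scored, and knock-downs that hurt cell survival may mask genuine repressor factors.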 Unmarked entries are inactive. Reagent sequences are not shown.

no.	target	mean z-score	z-score, replicate A	z-score, replicate B	z-score, replicate C
1	TMEM191A	0.02	-0.1	0.2	-0.05
2	PHF11	-0.58	-0.78	-0.4	-0.56
3	SLCO1B3	0.36	0.44	0.13	0.51
4	TYMP	1.24	1.01	1.2	1.52
5	LOC283586 (retired record)	-0.27	-0.2	-0.57	-0.03
6	CXCL8	-1.19	-1.67	-1.1	-0.79
7	ANGPTL6	-0.71	-0.84	-0.89	-0.41
8	CFAP69	-0.13	0.64	0.07	-1.09
9	C11orf42	-0.09	-0.24	-0.15	0.13
10	MYO6	0.33	0.25	0.5	0.25
11	LINC02898	-0.36	-0.26	-0.67	-0.17
12	KTN1-AS1	1.47	1.23	1.67	1.51
13	ARID1A	1.5	1.68	1.2	1.61
14	PDLIM4	0.61	0.86	0.45	0.51
15	FABP5	-0.88	-0.98	-0.96	-0.69
16	WDTC1	-1.46	-1.54	-1.4	-1.42
17	LOC389029 (retired record)	-0.84	-0.43	-0.89	-1.19
18	OR52E8	1.11	1.17	0.63	1.52
19	GPALPP1	-0.64	-0.44	-0.71	-0.78
20	ABHD1	-1.17	-1.24	-1.17	-1.1
21	HOXA9	0.83	0.94	0.41	1.15
22	RBM15B	0.02	0.4	0.05	-0.38
23	PWWP2A	-1.12	-1.33	-0.74	-1.28

A portion from the list above, for reference:
no.	target	mean z-score	z-score, replicate A	z-score, replicate B	z-score, replicate C
17	LOC389029 (retired record)	-0.84	-0.43	-0.89	-1.19
18	OR52E8	1.11	1.17	0.63	1.52
